Pooled drug test results. Numbers come from NIAID ChemDB, via PubChem.

Common to all: whole-cell or culture tests; organism: Mycobacterium tuberculosis

MIC bound comes from a single tested concentration. ECn: concentration that inhibits the pathogen or its effect by n%. Lines come from different laboratories, so protocols vary. Percent inhibition refers to the dose given; in toxicity tests it is the harm to the cells. An empty or dashed field is not shown.

structure,changes,tested at,cells,read by,strain or isolate,measure,value
Nc1ccc2nc(-c3ccccc3)c(-c3ccccc3)nc2c1,,,,,H37Rv,MIC,>100 µg/mL
O=c1oc2ccccc2c(=O)n1-c1ccc(F)cc1,,,,,CNCTC MY331/88,MIC,125 µM
CCCCCCCCCCCCCCCCCCNCCNC(C)CCc1ccccc1,,,,,,MIC,50 µM
NNC(=O)c1ccncc1,INH RIF EMB resistant,,,resazurin,Clinical isolate 19 RP,MIC,3.12 µg/mL
C=C(C)C(CCC#N)(CCC#N)C(C)=O,,,,,H37Rv,MIC,100 µg/mL
NCC[C@H](O)C(=O)N[C@@H]1C[C@H](N)[C@@H](O[C@H]2O[C@H](CN)[C@@H](O)[C@H](O)[C@H]2O)[C@H](O)[C@H]1O[C@H]1O[C@H](CO)[C@@H](O)[C@H](N)[C@H]1O,,,,broth dilution / resazurin,MDR2,MIC,16 µg/mL
Cc1cc(C)c(N(C)C(=O)CCC(=O)O)c(Br)c1,,,,,H37Rv,MIC,100 µg/mL
CO[C@H]1/C=C/O[C@@]2(C)Oc3c(C)c(O)c4c(=O)c(c5oc6cc(N7CCN(C(C)C)CC7)cc(=O)c6nc5c4c3=C2O)NC(=O)/C(C)=C\C=C\[C@H](C)[C@H](O)[C@@H](C)[C@@H](O)[C@@H](C)[C@H](OC(C)=O)[C@@H]1C,,,,,9 (rifampin-resistant),MIC,0.05 µg/mL
CC(C)=CCC/C(C)=C/CNCCNC[C@]1(C)CCC[C@]2(C)c3ccc(C(C)C)cc3CC[C@@H]12,,,,,,MIC,12.5 µM
CCCn1c2c(c(=O)n(CC)c1=O)S(=O)C(OCC)C(=O)N2,,6.25 µg/mL,,resazurin,H37Rv,inhibition,2%
NNC(=O)c1ccncc1,,,,,9S,MIC,0.1 µg/mL
NC(=O)c1cnccn1,,,,,Isolate W5457,MIC,>900 µg/mL
CN1c2ccccc2CCC1CCc1ccc2c(c1)OCO2,,,,,MT5,MIC,>100 µg/mL
CN[C@@H]1[C@H](O[C@H]2[C@H](O[C@H]3[C@H](O)[C@@H](O)[C@H](N=C(N)N)[C@@H](O)[C@@H]3N=C(N)N)O[C@@H](C)[C@]2(O)C=O)O[C@@H](CO)[C@H](O)[C@H]1O,,,,,Isolate 1,MIC,8 µg/mL
C[C@H]1COc2c(N3CCN(C)CC3)c(F)cc3c(=O)c(C(=O)O)cn1c23,,,,,2S,MIC,0.5 µg/mL
O=C(O)CCc1c[nH]c2ccccc12,,,,,H37Rv,MIC,100 µg/mL
COC(=O)N1C(c2ccccc2)C=CC(c2ccccc2)N1C(=O)OC,,,,BACTEC,H37Rv,MIC bound,>12.5 µg/mL
CC(CNCCC(c1ccccc1)c1ccccc1)N[C@@H]1C[C@@H]2C[C@H]([C@H]1C)C2(C)C,,,,,,MIC,50 µM
O=CC1N=C(Cc2ccccc2)OC1=O,,12.5 µg/mL,,BACTEC,H37Rv,inhibition,-9%
Cc1ccc(-n2c(=O)oc3cc(Cl)ccc3c2=O)cc1,,,,,CNCTC MY331/88,MIC,8 µM
O=C(CC(c1ccccc1)C(C(=O)O)c1ccccc1)c1ccccc1,,,,,H37Rv,MIC,100 µg/mL
C[N+](C)(C)CC(=O)N/N=C/c1ccc([N+](=O)[O-])o1,,,,BACTEC,H37Rv,MIC bound,≤12.5 µg/mL
O=c1oc2ccc(F)cc2c(=O)n1-c1ccc(C(F)(F)F)cc1,,,,,CNCTC MY331/88,MIC,2 µM
CCCCCCCCCCCNCCNCCc1ccccc1F,,,,,,MIC,50 µM
NC1CCN(c2c(F)cc3c(=O)c(C(=O)O)cn(C4CC4)c3c2Cl)C1,,,,,ATCC 35828,MIC,0.125 µg/mL
COc1ccc2c(=O)c(-c3c(-c4ccccc4)oc4cc(OC)ccc4c3=O)c(-c3ccccc3)oc2c1,,12.5 µg/mL,,,H37Rv,inhibition,0%
Nc1ccc(C(=O)O)c(O)c1,,,,,H37Rv,MIC,0.8 µg/mL
COc1cccc2c1C(=O)c1c(O)c3c(c(O)c1C2=O)CC(O)(C1(C)OCCO1)CC3O,,12.5 µg/mL,,BACTEC,H37Rv,inhibition,11%
CC(C)=CCC/C(C)=C/CNCCNC1CCCC(C)C1C,,,,,,MIC,25 µM
c1ccc(C(CNCCNCCCN2CCOCC2)c2ccccc2)cc1,,,,,,MIC,25 µM
O=S1(=O)CS(=O)(=O)OCCO1,,,,BACTEC,H37Rv,MIC bound,>12.5 µg/mL
CO[C@H]1/C=C/O[C@@]2(C)Oc3c(C)c(O)c4c(O)c(c(/C=N/N5CCN(C)CC5)c(O)c4c3C2=O)NC(=O)/C(C)=C\C=C\[C@H](C)[C@H](O)[C@@H](C)[C@@H](O)[C@@H](C)[C@H](OC(C)=O)[C@@H]1C,,,,,Isolate 13,MIC,<0.03 µg/mL
S=c1n(-c2ccc(Cl)cc2)c2nc3ccccc3nc(/c2=N\Nc2cc(Cl)ccc2Cl)n1-c1ccccn1,,12.5 µg/mL,,BACTEC,H37Rv,inhibition,86%
CO[C@H]1/C=C/O[C@@]2(C)Oc3c(C)c(O)c4c(O)c(c5c(c4c3C2=O)NC2(CCN(CC(C)C)CC2)N=5)=NC(=O)/C(C)=C\C=C\[C@H](C)[C@H](O)[C@@H](C)[C@@H](O)[C@@H](C)[C@H](OC(C)=O)[C@@H]1C,,,,,Strain 64,MIC,0.03 µg/mL
COc1cc(S(N)(=O)=O)ccc1Cl,,,,,H37Rv,MIC,>100 µg/mL
CN1C(=O)C2N(N(C)C1=O)C1(Br)C(=O)NC(=O)C21Br,,12.5 µg/mL,,BACTEC,H37Rv,inhibition,5%
CN(C)c1ccc(P(O)c2ccc(N(C)C)cc2)cc1,,,,,H37Rv,MIC,>100 µg/mL
CC[C@H]1OC(=O)[C@H](C)[C@@H](O[C@H]2C[C@@](C)(OC)[C@@H](O)[C@H](C)O2)[C@H](C)[C@@H](O[C@@H]2O[C@H](C)C[C@H](N(C)C)[C@H]2O)[C@](C)(O)C[C@@H](C)CN(C)[C@H](C)[C@@H](O)[C@]1(C)O,,,,,H37Rv,MBC,>8 µg/mL
CCOC(=O)c1ccc(-n2c(=O)oc3ccc(Br)cc3c2=O)cc1,,,,,CNCTC MY331/88,MIC,4 µM
CC(=O)Oc1ccc2ncccc2c1,,,,,H37Rv,MIC,100 µg/mL
CCCCCc1cc(OC)c2ccccc2n1,,,,,MT9,MIC,42 µg/mL
CO[C@H]1/C=C/O[C@@]2(C)Oc3c(C)c(O)c4c(=O)c(c5oc6cc(N7CCN(CC(C)C)CC7)cc(=O)c6nc5c4c3=C2O)NC(=O)/C(C)=C\C=C\[C@H](C)[C@H](O)[C@@H](C)[C@@H](O)[C@@H](C)[C@H](OC(C)=O)[C@@H]1C,,,,,29 (rifampin-resistant),MBC,0.025 µg/mL
C(CNCC12CC3CC(CC(C3)C1)C2)NCC12CC3CC(CC(C3)C1)C2,,,,,,MIC,9.4 µM
Cc1nn(C(=O)c2ccccc2O)c2c1C(c1ccco1)SC(N)=N2,,,,BACTEC,H37Rv,MIC bound,>12.5 µg/mL
NC[C@H]1O[C@H](O[C@H]2[C@H](O)[C@@H](O[C@H]3O[C@H](CO)[C@@H](O)[C@H](N)[C@H]3O)[C@H](N)C[C@@H]2N)[C@H](O)[C@@H](O)[C@@H]1O,,,,,Isolate 15,MIC,2 µg/mL
C[C@H]1COc2c(N3CCN(C)CC3)c(F)cc3c(=O)c(C(=O)O)cn1c23,,,,,ATCC 35820,MIC,0.25 µg/mL
c1ccc(CCCNCCNCCC(c2ccccc2)c2ccccc2)cc1,,,,,,MIC,37.5 µM
Cc1ccc(NNC(=O)C(=O)OC2C(=O)OCC2O)cc1,,,,BACTEC,H37Rv,MIC bound,>12.5 µg/mL
C[C@H](NCCNC1CCCCCCC1)C1CCCCC1,,,,,,MIC,50 µM
O=c1c2cccc3cccc(c4oc5c6cccc7cccc(c(=O)c5c14)c76)c32,,12.5 µg/mL,,BACTEC,H37Rv,inhibition,0%
CC(C)N(CCO)CCO,,,,,H37Rv,MIC,>100 µg/mL
c1ccc(C(CNCCNCC(c2ccccc2)c2ccccc2)c2ccccc2)cc1,,,,,,MIC,37.5 µM
CCCCC(CC)CN1CN(CC(CC)CCCC)CC(C)(NCCNC[C@@H](C)O)C1,,,,,,MIC,25 µM
COc1cc(OC)c2c(c1)OC(c1cc(OC)c(OC)c(OC)c1)C(Br)(Br)C2=O,,12.5 µg/mL,,,,inhibition,16%
Fc1ccccc1CCNCCNCCC1=CCCCC1,,,,,,MIC,25 µM
O=[N+]([O-])c1ccc(Nc2nc3ccccc3o2)cc1,,,,,H37Rv,MIC,>100 µg/mL
Clc1ccc(CCNCCNCc2ccccc2)c(Cl)c1,,,,,,MIC,50 µM
CC1CCCC(NCCNC(c2ccccc2)c2ccccc2)C1C,,,,,,MIC,50 µM
COc1ccc2c(c1)OC(c1ccc(Cl)cc1)CC2=O,,12.5 µg/mL,,,,inhibition,48%
Cn1c2ccccc2c2nnc(SCCN3CCOCC3)nc21,,6.25 µg/mL,,resazurin,H37Rv,inhibition,34%
CN(C)c1ccc(N=C2C(=O)NC3C=CC=CN23)cc1,,,,,H37Rv,MIC,100 µg/mL
CC(=O)Oc1ccc([C@@H]2CC(=O)c3c(cc(OC(C)=O)c(-c4c(OC(C)=O)cc(OC(C)=O)c5c4O[C@H](c4ccc(OC(C)=O)cc4)CC5=O)c3OC(C)=O)O2)cc1,,,,,H37Rv,EC50,>12.5 µg/mL
CCCNCCNC[C@]1(C)CCC[C@]2(C)c3ccc(C(C)C)cc3CC[C@@H]12,,,,,,MIC,12.5 µM
N#Cc1ncc(C(Cl)(Cl)Cl)nc1Cl,,,,,PZA-R,MIC,6.3 µg/mL
CCN(CC)CCCNc1cc(C)nc(NCCCN(CC)CC)n1.Cl,,,,,H37Rv,MIC,>100 µg/mL
C/C(=N\Nc1cc(C)c2cc(C)ccc2n1)c1ccccn1,,,VERO,,H37Rv,MIC,6.25 µg/mL
C/C(=C\C(=O)Nc1ccc(N)cc1)C(=O)O,,,,,H37Rv,MIC,>100 µg/mL
CC1COc2c(N3CCN(C)CC3)c(F)cc3c(=O)c(C(=O)O)cn1c23,,,,,ATCC 35828,MBC,2 µg/mL
CO[C@H]1/C=C/O[C@@]2(C)Oc3c(C)c(O)c4c(O)c(c(/C=N/N5CCN(C6CCCC6)CC5)c(O)c4c3C2=O)NC(=O)/C(C)=C\C=C\[C@H](C)[C@H](O)[C@@H](C)[C@@H](O)[C@@H](C)[C@H](OC(C)=O)[C@@H]1C,,,,,H37Rv,MIC,0.125 µg/mL
COC(=O)C1(O)C(=O)NC2=C1C(=O)c1ccccc1C2=O,,,,resazurin,H37Rv,MIC bound,>6.25 µg/mL
CCCCCCCCCCCCOS(=O)(=O)c1ccc(Br)cc1,,,,,H37Rv,MIC,>100 µg/mL
COC(=O)[C@H]1[C@H](O)[C@@H](C)[C@@H](O)[C@](C)(O)/C=C(\C)C2=C3C(=C(C)C(=O)c4c(O)c(c(C)c(OC(C)=O)c43)NC(=O)/C(C)=C/C=C\[C@@H](C)C(O)[C@@H](C)[C@H]1O)OCO2,,,,BACTEC,H37Rv,MIC,≥12.5 µg/mL
c1ccc2c(c1)Nc1ccccc1S2,,,,,H37Rv,MIC,>100 µg/mL
COc1cc(-c2nc(SC)nc3c2ccc2ccccc23)cc(OC)c1OC,,,,BACTEC,H37Rv,MIC bound,>12.5 µg/mL
CS(=O)(=O)Nc1ccc([N+](=O)[O-])cc1[N+](=O)[O-],,,,,H37Rv,MIC,100 µg/mL
COc1ccc(OC)c(CCNCCNC23CC4CC(CC2C4)C3)c1,,,,,,MIC,25 µM
CC(=O)/C=C/c1ccc(O)cc1,,,,,H37Rv,MIC,50 µg/mL
COC(=O)C1=C(c2cc(OC)c(OC)c(OC)c2)OC(c2cc(OC)c(OC)c(OC)c2)C1,,12.5 µg/mL,,BACTEC,H37Rv,inhibition,5%
CCCCOc1nc(N)nc(N2CCCCC2)n1,,,,,H37Rv,MIC,>100 µg/mL
CCCCCCCCCCCCCCCCOc1ccc(S(=O)(=O)N/N=c2\sc(-c3ccccc3Cl)nn2C)cc1C(=O)O,,,,resazurin,H37Rv,MIC bound,>6.25 µg/mL
CN[C@@H]1[C@H](O[C@H]2[C@H](O[C@H]3[C@H](O)[C@@H](O)[C@H](N=C(N)N)[C@@H](O)[C@@H]3N=C(N)N)O[C@@H](C)[C@]2(O)C=O)O[C@@H](CO)[C@H](O)[C@H]1O,,,,,TN2229 (N2),MIC,>2 µg/mL
CC1=C(C)C(=O)C(CC2=C(C)C(=O)C(C)=C(C)C2=O)=C(C)C1=O,,12.5 µg/mL,,BACTEC,H37Rv,inhibition,95%
NC1CCN(c2nc3c(cc2F)c(=O)c(C(=O)O)cn3-c2ccc(F)cc2F)C1,,,,,ATCC 35828,MBC,>8 µg/mL
Oc1ccc(O)cc1,,,,,H37Rv,MIC,>100 µg/mL

Repeating the final 7 entries:

structure,changes,tested at,cells,read by,strain or isolate,measure,value
COC(=O)C1=C(c2cc(OC)c(OC)c(OC)c2)OC(c2cc(OC)c(OC)c(OC)c2)C1,,12.5 µg/mL,,BACTEC,H37Rv,inhibition,5%
CCCCOc1nc(N)nc(N2CCCCC2)n1,,,,,H37Rv,MIC,>100 µg/mL
CCCCCCCCCCCCCCCCOc1ccc(S(=O)(=O)N/N=c2\sc(-c3ccccc3Cl)nn2C)cc1C(=O)O,,,,resazurin,H37Rv,MIC bound,>6.25 µg/mL
CN[C@@H]1[C@H](O[C@H]2[C@H](O[C@H]3[C@H](O)[C@@H](O)[C@H](N=C(N)N)[C@@H](O)[C@@H]3N=C(N)N)O[C@@H](C)[C@]2(O)C=O)O[C@@H](CO)[C@H](O)[C@H]1O,,,,,TN2229 (N2),MIC,>2 µg/mL
CC1=C(C)C(=O)C(CC2=C(C)C(=O)C(C)=C(C)C2=O)=C(C)C1=O,,12.5 µg/mL,,BACTEC,H37Rv,inhibition,95%
NC1CCN(c2nc3c(cc2F)c(=O)c(C(=O)O)cn3-c2ccc(F)cc2F)C1,,,,,ATCC 35828,MBC,>8 µg/mL
Oc1ccc(O)cc1,,,,,H37Rv,MIC,>100 µg/mL